Pooled drug test results. Numbers come from NIAID ChemDB, via PubChem.

Shared fields: whole-cell or culture tests; species: Herpes simplex virus 1; cells: VERO; read-out: inhibition

For "inactive" no cut-off is given. Inhibition is in % at the dose shown (toxicity tests: loss of growth or viability). Lines come from different laboratories, so protocols vary. An empty or dashed field is not shown.

structure	strain	method	dose	value
Cc1ccc(NS(=O)(=O)c2cccc(S(=O)(=O)Nc3ccc(C)cc3)c2)cc1	-	plaque count	30 µM	>50%
COc1ccc(C2CC(=O)Nc3nc(-c4cccnc4)nn32)cc1	7401H	plaque count	50 µg/mL	4%
Clc1ncnc2nc(-c3cscn3)[nH]c12	-	plaque count	100 µg/mL	0%
Nc1nc2c(ncn2COCCO)c(=O)[nH]1	7401H	virus yield	0.6 µg/mL	99.7%
O=c1ccn([C@@H]2O[C@H](CO)[C@@H](O)[C@@H]2F)c(=O)[nH]1	F	virus yield	0.5 µM	82%
[N-]=[N+]=NC[C@H]1O[C@@H](n2cc(Cl)c(=O)[nH]c2=O)C[C@@H]1O	-	plaque count	100 µM	19%
Cc1ccc2ncc3c(=O)n(-c4ccc(Br)cc4)[nH]c3c2c1	-	virus yield	100 µM	27%
CCCCCCCCCCCC(=O)OCC(CO[C@@H]1O[C@H](CO)[C@H](O)[C@H](O)[C@H]1O)OC(=O)CCCCCCCCCCC	KOS	plaque count	50 µg/mL	80%
CC(=O)O[C@H]1C[C@](C)(O)/C=C/C[C@@H](C)/C=C/[C@@]2(C)CC[C@@H](C(C)(C)OC(C)=O)[C@H]12	-	cytopathic effect	15 µM	89%
Nc1ncnc2c1nnn2[C@@H]1c2ccccc2C[C@@H]1O	F	plaque count	100 µM	0%
CCCCCCCC/C=C\CCCCCCCC(=O)OC(COC(=O)CCCCCCCCCCC)CO[C@@H]1O[C@H](CO)[C@@H](O)[C@H](O)[C@H]1O	KOS	plaque count	50 µg/mL	13%
[N-]=[N+]=NC[C@H]1O[C@@H](n2cc(I)c(=O)[nH]c2=O)C[C@@H]1O	-	plaque count	100 µM	40%
COc1ccc(NC(=O)Nc2ccc([N+](=O)[O-])cc2)cc1NC(=O)Nc1ccc([N+](=O)[O-])cc1	-	plaque count	5 µM	0%
Cc1ccc2ncc3c(=O)n(-c4ccccc4)[nH]c3c2c1	-	virus yield	100 µM	20%
Nc1ccn([C@H]2O[C@@H](CO)[C@H](O)[C@H]2F)c(=O)n1	F	virus yield	1 µM	67%
CCCCCCCC/C=C\CCCCCCCC(=O)OCC(CO[C@@H]1O[C@H](CO)[C@@H](O)[C@H](O)[C@H]1O)OC(=O)CCCCCCC/C=C\CCCCCCCC	KOS	plaque count	50 µg/mL	inactive
O=C1Nc2ccc(I)cc2C1=O	-	virus yield	50 µM	28%
COc1cccc2c1C(=O)c1c(O)c3c(c(O)c1C2=O)C[C@@](O)(C(C)=O)C[C@@H]3O[C@H]1C[C@H](N(C)C)[C@H](O)[C@H](C)O1	-	virus yield	1 µM	19%
CNc1[nH]c(=S)nc2c1C(c1ccc([N+](=O)[O-])cc1)c1c([nH]c(=S)[nH]c1=O)O2	-	-	10 µg/mL	50%
Cc1ccc2c(c1)c1nn(-c3ccc(Cl)cc3)c(=O)c-1cn2C1O[C@H](CO)[C@@H](O)[C@H]1O	-	virus yield	100 µM	35%
O=C1Nc2ccccc2C1=O	-	virus yield	50 µM	0%
O=c1ccn(N2C[C@H](CO)[C@H]2CO)c(=O)[nH]1	-	plaque count	10 µg/mL	0%
Cc1ccc2c(c1)C(=O)C(=O)N2	-	virus yield	50 µM	0%
O=C1CC(c2ccc([N+](=O)[O-])cc2)n2nc(-c3cccnc3)nc2N1	7401H	plaque count	50 µg/mL	16%
Nc1nc(=O)n([C@@H]2O[C@H](CO)[C@@H](O)[C@@H]2F)cc1I	-	cytopathic effect	0.01 µg/mL	≥25%
O=c1c2cn(C3O[C@H](CO)[C@@H](O)[C@H]3O)c3cc(F)ccc3c-2nn1-c1ccc(F)cc1	-	virus yield	100 µM	35%
O=C1Nc2ccc(Cl)cc2C1=O	-	virus yield	50 µM	28%
COc1ccc(NC(=S)Nc2ccc([N+](=O)[O-])cc2)cc1NC(=S)Nc1ccc([N+](=O)[O-])cc1	-	plaque count	30 µM	<50%
C/C=C/c1cn([C@H]2C[C@H](O)[C@@H](CO)O2)c(=O)[nH]c1=O	KJ502	plaque count	10 µM	92%
Cc1ccc2c(c1)c1nn(-c3ccc(F)cc3)c(=O)c-1cn2C1O[C@H](CO)[C@@H](O)[C@H]1O	-	virus yield	100 µM	15%
COc1cccc(NS(=O)(=O)c2ccc(Oc3ccc(S(=O)(=O)Nc4cccc(OC)c4)cc3)cc2)c1	-	plaque count	30 µM	>90%
Nc1[nH]c(=S)nc2c1C(c1ccc([N+](=O)[O-])cc1)c1c([nH]c(=S)[nH]c1=O)O2	-	-	10 µg/mL	70%
O=S(=O)(c1ccc(O)cc1)c1ccc(OCc2ccc(Cl)cc2)cc1	-	plaque count	30 µM	>50%
Nc1nc(=O)n([C@@H]2O[C@H](CO)[C@@H](O)[C@@H]2F)cc1I	F	virus yield	0.05 µM	78%
CCC(=O)C(CCCCCCOc1ccc(OC)cc1Cl)C(=O)CC	KOS	plaque count	5 µg/mL	98%
CC(=O)OC[C@H]1O[C@H](O[C@H]2O[C@@H](COC(=O)/C=C/c3ccccc3)[C@H](O)C2(COC(C)=O)OC(=O)/C=C/c2ccccc2)[C@H](OC(C)=O)[C@@H](O)[C@@H]1OC(C)=O	7401H	plaque count	100 µg/mL	16.9%
COc1ccc(C2CC(=O)Nc3nc(-c4ccncc4)nn32)cc1	7401H	plaque count	50 µg/mL	15%
Cc1cn([C@@H]2O[C@H](CO)[C@@H](O)[C@@H]2F)c(=O)[nH]c1=O	-	cytopathic effect	0.03 µg/mL	≥25%
Cc1cn([C@H]2C[C@H](O)[C@@H](CN)O2)c(=O)[nH]c1=O	-	plaque count	100 µM	97%
O=C1CC(c2ccccc2)n2nc(-c3cccnc3)nc2N1	7401H	plaque count	50 µg/mL	8%
O=c1[nH]c(=O)n([C@H]2C[C@H](O)[C@@H](CO)O2)cc1CCCl	-	cytopathic effect	0.01 µg/mL	≥25%
CC/C=C/C/C=C/C/C=C/CCCCCCCC(=O)OCC(CO[C@@H]1O[C@H](CO)[C@@H](O)[C@H](O)[C@H]1O)OC(=O)CCCCCCC/C=C\C/C=C\CCCCC	KOS	plaque count	50 µg/mL	90%
NC(=Nc1ccc(Cc2ccc(N=C(N)c3ccccc3)cc2)cc1)c1ccccc1	-	plaque count	30 µM	>90%
Cc1cn([C@@H]2O[C@H](CO)[C@@H](O)[C@@H]2F)c(=O)[nH]c1=O	F	virus yield	5 µM	98.5%
O=c1[nH]c(=O)n([C@H]2C[C@H](O)[C@@H](CO)O2)cc1I	-	cytopathic effect	0.1 µg/mL	≥25%
CCCCCCCC/C=C\CCCCCCCC(=O)OC(COC(=O)CCCCCCCCCCCCCCCCCCCCC)CO[C@@H]1O[C@H](CO)[C@@H](O)[C@H](O)[C@H]1O	KOS	plaque count	50 µg/mL	inactive
Cc1cccc(NS(=O)(=O)c2ccc(Oc3ccc(S(=O)(=O)Nc4cccc(C)c4)cc3)cc2)c1	-	plaque count	30 µM	>50%
CN1C(=O)NC(=O)N([C@H]2C[C@H](O)[C@@H](CO)O2)C1(C)C	42D	plaque count	25 µM	52%
Cc1ccc2ncc3c(=O)n(-c4ccc(F)cc4)[nH]c3c2c1	-	virus yield	100 µM	31%

Repeating the final 3 entries:

structure | strain | method | dose | value
Cc1cccc(NS(=O)(=O)c2ccc(Oc3ccc(S(=O)(=O)Nc4cccc(C)c4)cc3)cc2)c1 | - | plaque count | 30 µM | >50%
CN1C(=O)NC(=O)N([C@H]2C[C@H](O)[C@@H](CO)O2)C1(C)C | 42D | plaque count | 25 µM | 52%
Cc1ccc2ncc3c(=O)n(-c4ccc(F)cc4)[nH]c3c2c1 | - | virus yield | 100 µM | 31%